The text below walks through data of publication PMC7024169, “Synthesis and Antimalarial Activity of 1,4-Disubstituted Piperidine Derivatives” (Molecules, 2020).

The test system of assay [1] is Plasmodium falciparum W2 Strain. Briefly: Antiplasmodial SYBR Green I assay, chloroquine-resistant W2 strain. The class given is cell-based.
The subject of assay [2] is Plasmodium falciparum 3D7 Strain. Briefly: Antiplasmodial SYBR Green I assay, chloroquine-sensitive 3D7 strain. It counts as cell-based.

With “2-(2-Chlorophenoxy)-N-(1-benzylpiperidin-4-yl)-N-(3-fluorophenyl) acetamide”, the “activity against W2 strain, in words” value in assay [1] is reported as “good activity”. For the same substance, the “activity against 3D7 strain, in words” value in assay [2] is “good activity”.

With “2-(2-Chlorophenoxy)-N-(3-fluorophenyl)-N-(1-(perfluorobenzyl) piperidin-4-yl) acetamide”, the “activity against W2 strain, in words” value in assay [1] was “inactive”. For the same substance, the “activity against 3D7 strain, in words” value in assay [2] was “inactive”.

As to “N-(1-(2-Chlorobenzyl)piperidin-4-yl)-2-(2-chlorophenoxy)-N-(3-fluorophenyl) acetamide”, the “activity against W2 strain, in words” value in assay [1] is “good activity”. Further, the “activity against 3D7 strain, in words” value in assay [2] is “good activity”.
